# Fitness effects across NS2B and the NS3 protease domain of Zika virus

The measurements come from Ni et al. 2025 (doi:10.1038/s41467-025-63602-z).

The scanned region of Zika virus MR766 is shown below (positions 1-308): NS2B is 2-131, NS3 begins at position 132.
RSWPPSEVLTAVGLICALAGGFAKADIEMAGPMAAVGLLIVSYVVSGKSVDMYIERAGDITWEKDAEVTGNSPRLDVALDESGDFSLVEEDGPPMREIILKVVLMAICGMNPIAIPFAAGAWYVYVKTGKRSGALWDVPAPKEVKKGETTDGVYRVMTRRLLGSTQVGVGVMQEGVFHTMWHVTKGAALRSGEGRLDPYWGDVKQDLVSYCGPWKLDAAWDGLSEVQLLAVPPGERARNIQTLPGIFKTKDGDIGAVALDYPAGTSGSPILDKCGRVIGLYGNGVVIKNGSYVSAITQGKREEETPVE

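Pools of virus carrying all single amino acid changes were selected for growth in Huh-7.5 cells. The effect is the change in frequency of a mutant, normalised to wild type, as a mean of three replicate libraries (two for positions 207-308). The study looked for pockets that tolerate few changes, as a guide for inhibitor design.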

Scale: log2 effect, wild type = 0; the lower, the more harmful to the virus. Substitutions are written as wild-type residue, site number, new residue.

| mutation | effect (log2) |
|---|---|
| M33* | -8.42 |
| M33A | -2.26 |
| M33C | -5.20 |
| M33D | -4.42 |
| M33E | -5.69 |
| M33F | 0.35 |
| M33G | -0.64 |
| M33H | -1.59 |
| M33I | -0.39 |
| M33K | -5.62 |
| M33L | -0.98 |
| M33N | -6.05 |
| M33P | -6.43 |
| M33Q | -4.16 |
| M33R | -7.26 |
| M33S | -4.54 |
| M33T | -0.79 |
| M33V | -0.53 |
| M33W | -0.20 |
| M33Y | 0.29 |
| A34* | -6.72 |
| A34C | -1.00 |
| A34D | -6.42 |
| A34E | -4.62 |
| A34F | -5.94 |
| A34G | -1.63 |
| A34H | -5.84 |
| A34I | -4.81 |
| A34K | -4.91 |
| A34L | -6.45 |
| A34M | -5.15 |
| A34N | -6.21 |
| A34P | -7.22 |
| A34Q | -4.79 |
| A34R | -6.42 |
| A34S | 0.39 |
| A34T | -2.48 |
| A34V | -3.80 |
| A34W | -4.60 |
| A34Y | -5.74 |
| A35* | -7.71 |
| A35C | -1.51 |
| A35D | -5.42 |
| A35E | -5.81 |
| A35F | -5.54 |
| A35G | -2.21 |
| A35H | -5.73 |
| A35I | -5.72 |
| A35K | -5.93 |
| A35L | -7.24 |
| A35M | -5.64 |
| A35N | -5.60 |
| A35P | -6.24 |
| A35Q | -6.02 |
| A35R | -7.07 |
| A35S | -5.16 |
| A35T | -2.05 |
| A35V | -1.10 |
| A35W | -5.47 |
| A35Y | -5.76 |
| V36* | -7.89 |
| V36A | -1.47 |
| V36C | 0.15 |
| V36D | -3.94 |
| V36E | -5.43 |
| V36F | -4.49 |
| V36G | -1.68 |
| V36H | -4.35 |
| V36I | -0.08 |
| V36K | -5.92 |
| V36L | -3.06 |
| V36M | -3.07 |
| V36N | -3.88 |
| V36P | -5.08 |
| V36Q | -5.44 |
| V36R | -6.59 |
| V36S | -1.26 |
| V36T | -0.72 |
| V36W | -3.91 |
| V36Y | -5.29 |
| G37* | -7.92 |
| G37A | -3.77 |
| G37C | -2.89 |
| G37D | -5.09 |
| G37E | -5.87 |
| G37F | -3.67 |
| G37H | -4.93 |
| G37I | -5.28 |
| G37K | -6.05 |
| G37L | -6.42 |
| G37M | -5.22 |
| G37N | -3.23 |
| G37P | -5.28 |
| G37Q | -5.54 |
| G37R | -7.63 |
| G37S | -2.73 |
| G37T | -2.69 |
| G37V | -4.78 |
| G37W | -2.30 |
| G37Y | -5.25 |

The first 7 entries again:

For M33* the result was -8.42.
For M33A the result was -2.26.
For M33C the result was -5.20.
For M33D the result was -4.42.
For M33E the result was -5.69.
For M33F the result was 0.35.
For M33G the result was -0.64.

An asterisk is a stop codon; stop codons read about -7, near the floor of the assay. Six mutants with high scores were retested singly and none clearly outgrew wild type, so positive values are not proof of better growth. The authors count -1 or higher as tolerated. Position 1 is the last residue of NS2A. The region was split into three libraries (1-103, 104-206, 207-308).